Measured values from several laboratories, pooled; numbers as filed in NIAID ChemDB.

Shared fields: growth or infection tests; agent: HIV-1; measure: EC50

ECn is the concentration giving n% inhibition of infection, replication or growth. Blank or dashed fields: not listed here. Conditions beyond the fields shown may differ between rows.

{"smiles": "C[C@@H]1CN(C(=O)c2ccccc2)CCN1C(=O)C(=O)c1c[nH]c2c(NC(=O)NCCOCCOCCNC(=O)c3cccc(B(O)O)c3)cccc12", "cell line": "HeLa", "read by": "luciferase / reporter gene", "result": "<1 µM"}
{"smiles": "CCOCn1c(Cc2ccccc2)c(C(C)C)c(=O)[nH]c1=O", "strain": "IIIB", "cell line": "MT-4", "read by": "MTT", "mutations": "Efavirenz-resistant (K103R + V179D + P225H)", "result": ">100 µM"}
{"smiles": "CNc1nc2ccc(S(=O)(=O)N(CC(C)C)C[C@@H](O)[C@H](Cc3ccccc3)NC(=O)O[C@H]3CO[C@H]4OCC[C@H]43)cc2o1", "strain": "LAI WT", "cell line": "MT-4", "read by": "cytopathic effect / MTT", "result": "0.0027 µM"}
{"smiles": "CCc1c(Cc2cc(OC)cc(OC)c2)n(COCCOc2ccccc2)c(=O)[nH]c1=O", "strain": "IIIB", "cell line": "MT-4", "read by": "MTT", "result": "0.35 µM"}
{"smiles": "Cc1c(N)cccc1C(=O)N[C@@H](Cc1ccccc1)[C@H](O)CN(CC(C)C)S(=O)(=O)c1ccc2nc(N)oc2c1", "strain": "LAI WT", "cell line": "MT-4", "read by": "cytopathic effect / MTT", "result": "0.0537 µM"}
{"smiles": "C#C[C@@]1(CO)C=C[C@H](n2cc(C)c(=O)[nH]c2=O)O1", "cell line": "MT-2", "read by": "cytopathic effect", "result": "0.25 µM"}
{"smiles": "Nc1nc(N)c2ncn([C@@H]3O[C@H](CO)C[C@@H]3F)c2n1", "strain": "LAI", "cell line": "ATH-8 + ATH8", "read by": "cytopathic effect / XTT", "result": ">100 µM"}
{"smiles": "Cc1cn([C@H]2C=C[C@@H](COC(=O)NCCc3ccccn3)O2)c(=O)[nH]c1=O", "strain": "IIIB", "cell line": "PBMC", "read by": "p24", "result": ">100 µM"}
{"smiles": "CCOCn1c(Cc2cc(OC)cc(OC)c2)c(C(C)C)c(=O)[nH]c1=O", "strain": "IIIB", "cell line": "MT-4", "read by": "MTT", "result": "0.3 µM"}
{"smiles": "Cc1cn([C@H]2C=C[C@@H](COC(=O)NCCc3ccccc3)O2)c(=O)[nH]c1=O", "strain": "IIIB", "cell line": "PBMC", "read by": "p24", "result": "78 µM"}
{"smiles": "Cc1nc2c(c(C)c(C)n2CC2(C#N)CC2)c(-c2ccc(Cl)cc2)c1[C@H](OC(C)(C)C)C(=O)O", "strain": "IIIB", "cell line": "MT-4", "read by": "MTT", "result": "0.00167 µM"}
{"smiles": "CCOCn1c(Cc2cc(OC)cc(OC)c2)c(CC)c(=O)[nH]c1=O", "strain": "IIIB", "cell line": "MT-4", "read by": "MTT", "result": "0.6 µM"}
{"smiles": "C[C@@H]1CN(C(=O)c2ccccc2)CCN1C(=O)C(=O)c1c[nH]c2c(NC(=O)c3ccccn3)cccc12", "cell line": "HeLa", "read by": "luciferase / reporter gene", "result": "<1 µM"}
{"smiles": "Cc1nc2c(c(C)c(C)n2CCC(C)C)c(-c2ccc(Cl)cc2)c1C(OC(C)(C)C)C(=O)O", "strain": "IIIB", "cell line": "MT-4", "read by": "MTT", "result": "0.153 µM"}
{"smiles": "Cc1ccnc2c1NC(=O)c1cccnc1N2C1CC1", "cell line": "MT-4", "read by": "MTT", "mutations": "Y188L", "result": ">6.125 µM"}
{"smiles": "Cc1c(C(=O)N[C@@H](Cc2ccccc2)[C@H](O)CN(CC(C)C)S(=O)(=O)c2ccc3nc(N)oc3c2)ccc([N+](=O)[O-])c1O", "strain": "LAI WT", "cell line": "MT-4", "read by": "cytopathic effect / MTT", "result": "0.0324 µM"}
{"smiles": "Cc1nc2c(c(C)c(C)n2CC#N)c(-c2ccc(Cl)cc2)c1C(OC(C)(C)C)C(=O)O", "strain": "IIIB", "cell line": "MT-4", "read by": "MTT", "result": "0.341 µM"}
{"smiles": "Cc1cn([C@@H]2O[C@H](C(COC(=O)c3ccccc3)OC(=O)c3ccccc3)C3(OS(=O)(=O)C=C3N)[C@H]2O[Si](C)(C)C(C)(C)C)c(=O)[nH]c1=O", "strain": "IIIB", "cell line": "CEM", "read by": "syncytia", "result": ">28 µM"}
{"smiles": "Cc1cc(N)c(N)c(C)c1OCC(=O)N[C@@H](Cc1ccccc1)[C@H](O)CN(CC(C)C)S(=O)(=O)c1ccc2nc(N)oc2c1", "strain": "LAI WT", "cell line": "MT-4", "read by": "cytopathic effect / MTT", "result": "0.0955 µM"}
{"smiles": "CCn1c(C)c(C)c2c(-c3ccccc3)c(C(OC(C)(C)C)C(=O)O)c(C)nc21", "strain": "IIIB", "cell line": "MT-4", "read by": "MTT", "result": "0.692 µM"}
{"smiles": "N#CC(=C1CCN(C(=O)C(=O)c2c[nH]c3c(NC(=O)Nc4ccc(S(=O)(=O)O)cc4)cccc23)CC1)c1ccccc1", "cell line": "HeLa", "read by": "luciferase / reporter gene", "result": "<1 µM"}
{"smiles": "Nc1nc(Cl)c2ncn([C@@H]3O[C@H](CO)C[C@@H]3F)c2n1", "strain": "LAI", "cell line": "PBL(PHA STIM.) + PBL", "read by": "p24", "result": "<3.8 µM"}
{"smiles": "C[C@@H]1CN(C(=O)c2ccccc2)CCN1C(=O)C(=O)c1c[nH]c2c(NC(=O)CNC(C)(C)C)cccc12", "cell line": "HeLa", "read by": "luciferase / reporter gene", "result": "<1 µM"}
{"smiles": "O=C1Nc2ccc(Cl)cc2[C@@](C#CC2CC2)(C(F)(F)F)O1", "strain": "IIIB", "cell line": "MT-4", "read by": "MTT", "mutations": "Efavirenz-resistant (K103R + V179D + P225H)", "result": "14 µM"}
{"smiles": "C[C@H]1[C@H](O)[C@@H](C)/C=C/C=C/C=C/C=C/C=C/C=C/C=C/[C@H](O[C@@H]2O[C@H](C)[C@@H](O)[C@H](N)[C@@H]2O)C[C@@H]2O[C@](O)(C[C@@H](O)C[C@@H](O)CC[C@H](O)[C@@H](O)C[C@@H](O)CC(=O)O[C@H]1C)C[C@H](O)[C@H]2C(=O)O", "strain": "93BR020 CLADE F R5/X4 (SI)", "cell line": "PBMC", "read by": "p24 / RT activity", "result": "0.5 µM"}
{"smiles": "Cc1ccc(C)n1-c1ccc(C(=O)O)c(O)c1", "strain": "BCF02 R5 GROUP O", "cell line": "PBMC/5.25M7", "read by": "luciferase / cell fusion", "result": "3.94 µM"}
{"smiles": "Cc1cn([C@@H]2O[C@H](C(CO[Si](C)(C)C(C)(C)C)O[Si](C)(C)C(C)(C)C)C3(OS(=O)(=O)C=C3N)[C@H]2O[Si](C)(C)C(C)(C)C)c(=O)[nH]c1=O", "strain": "IIIB", "cell line": "MT-4", "read by": "cytopathic effect", "result": ">136 µM"}
{"smiles": "Cc1cn([C@H]2C=C[C@@H](COC(=O)NCCc3ccc(Cl)cc3)O2)c(=O)[nH]c1=O", "strain": "IIIB", "cell line": "PBMC", "read by": "p24", "result": "37.6 µM"}
{"smiles": "Cc1nc2c(c(C)c(C)n2CCCC#N)c(-c2ccc(Cl)cc2)c1[C@H](OC(C)(C)C)C(=O)O", "strain": "IIIB", "cell line": "MT-4", "read by": "MTT", "result": "0.0062 µM"}
{"smiles": "CN[C@@H]1[C@H](O[C@@H]2OC[C@@H](O)[C@H](O)[C@H]2O)[C@@H](O)[C@H](O[C@H]2c3cc(C)c(C(=O)N[C@H](C)C(=O)O)c(O)c3-c3c(cc4c(c3O)C(=O)c3cc(OC)cc(O)c3C4=O)[C@@H]2O)O[C@@H]1C", "strain": "Clade B US2 (R5-tropic)", "cell line": "PBMC", "read by": "p24 / ELISA", "result": "2.7 µM"}
{"smiles": "COc1ccc(CCNC(=O)OC[C@@H]2C=C[C@H](n3cc(C)c(=O)[nH]c3=O)O2)cc1", "strain": "IIIB", "cell line": "PBMC", "read by": "p24", "result": ">100 µM"}
{"smiles": "C[C@@H]1CCO[C@H]2Cn3cc(C(=O)NCc4ccc(F)cc4F)c(=O)c(O)c3C(=O)N12", "strain": "HXB2", "cell line": "MT-4", "read by": "luminescence", "result": "0.0019 µM"}
{"smiles": "Cc1cc(C)cc(Cc2c(C(C)C)c(=O)[nH]c(=O)n2COCCOc2ccccc2)c1", "strain": "N119", "cell line": "MT-4", "read by": "MTT", "mutations": "Y181C", "result": "1.85 µM"}

5 of the rows above, restated:

smiles,strain,cell line,read by,mutations,result
CCc1c(Cc2cc(OC)cc(OC)c2)n(COCCOc2ccccc2)c(=O)[nH]c1=O,IIIB,MT-4,MTT,,0.35 µM
CCOCn1c(Cc2cc(OC)cc(OC)c2)c(CC)c(=O)[nH]c1=O,IIIB,MT-4,MTT,,0.6 µM
O=C1Nc2ccc(Cl)cc2[C@@](C#CC2CC2)(C(F)(F)F)O1,IIIB,MT-4,MTT,Efavirenz-resistant (K103R + V179D + P225H),14 µM
Cc1c(N)cccc1C(=O)N[C@@H](Cc1ccccc1)[C@H](O)CN(CC(C)C)S(=O)(=O)c1ccc2nc(N)oc2c1,LAI WT,MT-4,cytopathic effect / MTT,,0.0537 µM
CN[C@@H]1[C@H](O[C@@H]2OC[C@@H](O)[C@H](O)[C@H]2O)[C@@H](O)[C@H](O[C@H]2c3cc(C)c(C(=O)N[C@H](C)C(=O)O)c(O)c3-c3c(cc4c(c3O)C(=O)c3cc(OC)cc(O)c3C4=O)[C@@H]2O)O[C@@H]1C,Clade B US2 (R5-tropic),PBMC,p24 / ELISA,,2.7 µM